A mixed list of measured activities; the numbers were collected in NIAID ChemDB.

Common to all: tests in culture; organism: Varicella zoster virus; cell line: HEL; read by: cytopathic effect; endpoint: EC50

Lines come from different laboratories, so protocols vary. ECn: concentration that inhibits the pathogen or its effect by n%.

smiles | strain or isolate | result
O=c1[nH]c(=O)n([C@H]2C[C@H](O)[C@@H](CO)O2)cc1/C=C/Br | OKA | 0.007 µg/mL
Nc1ccn(C[C@@H](CO)OCP(=O)(O)O)c(=O)n1 | Oka CF1743-resistant | 0.05 µM
Cc1cn(CCCC(O)CF)c(=O)[nH]c1=O | YS | >50 µg/mL
O=c1nc2oc(-c3ccc(Cl)cc3)cc2cn1[C@H]1C[C@H](O)[C@@H](CO)O1 | 07/1 (TK-) | >50 µM
O=C(O)P(=O)(O)O | Oka CF1742-resistant | 35.3 µM
Nc1ncnc2c1ncn2C[C@@H](CO)OCP(=O)(O)O | YS/R (TK-) | 0.004 µg/mL
Nc1ncnc2c1ncn2[C@@H]1C=C(CO)[C@@H](O)[C@H]1O | 07/1 YS/R (TK-) | 9 µg/mL
Nc1nc2c(ncn2CCC(CO)CO)c(=O)[nH]1 | Clinical isolate VZV-23 | 2.62 µM
Nc1ccn(CCCC(O)CF)c(=O)n1 | YS | >50 µg/mL
Nc1nc2c(ncn2COC(CO)CO)c(=O)[nH]1 | Oka BVaraU-resistant | 6.7 µM
CCCCCCCOc1ccc(-c2cc3cn([C@H]4C[C@H](O)[C@@H](CO)O4)c(=O)nc3o2)cc1 | YS/R (TK-) | >50 µM
CC1(C)[C@@H](CO)CC[C@@]1(C)Cn1cnc2c(N)ncnc21 | 07/1 (TK-) | >50 µg/mL
COC(=O)C(C)(C)NP(=O)(OC[C@H]1O[C@@H](n2cc(/C=C/Br)c(=O)[nH]c2=O)C[C@@H]1O)Oc1ccccc1 | 07 (TK-) | >200 µM
Nc1ncnc2c1ncn2C(CF)CCCO | OKA | >50 µg/mL
CCCCCCOc1ccc(-c2cc3cn([C@H]4C[C@H](O)[C@@H](CO)O4)c(=O)nc3o2)cc1 | OKA | <0.5 µM
CC1(C)[C@@H](CO)CC[C@@]1(C)Cn1ccc(=O)[nH]c1=O | YS/R (TK-) | >50 µg/mL
COc1ccc(-c2cc3cn([C@H]4C[C@H](O)[C@@H](CO)O4)c(=O)nc3o2)cc1 | 07/1 (TK-) | >50 µM
CC1(C)[C@@H](CO)CC[C@@]1(C)Cn1cnc2c(=O)[nH]cnc21 | 07/1 (TK-) | >50 µg/mL
O=C(O)CP(=O)(O)O | Oka penciclovir-resistant/A | 236.3 µM
O=c1[nH]c(=O)n([C@H]2C[C@H](O)[C@@H](CO)O2)cc1/C=C/Br | OKA | 0.003 µM
CC1(C)[C@@H](CO)CC[C@@]1(C)Cn1cc(I)c(=O)[nH]c1=O | YS/R (TK-) | >50 µg/mL